A mixed list of measured activities; the numbers were collected in NIAID ChemDB.

Shared fields: cytotoxicity tests; cell line: VERO; endpoint: CC50

Neighbouring rows are from separate reports.

| SMILES | read by | result |
|---|---|---|
| Cc1ccc2nc(Cl)c(/C=C/C(=O)c3ccc(C)o3)cc2c1 | MTS | 13.3 µM |
| Fc1ccccc1Sc1cc2ccccc2[n+](CCCCCc2ccccc2)c1 | neutral red | >10 µg/mL |
| O=C(NCc1ccccc1)c1c(-c2ccccc2)[n+](=O)c2ccc(F)cc2n1[O-] | ATP / luminescence | 17.86 µg/mL |
| Cc1ccc2nc(Cl)c(/C=C/C(=O)c3ccc(Br)s3)cc2c1 | MTS | 15.5 µM |
| C=C1CCC2C(C)(COC(C)=O)C(OC(C)=O)CCC2(C)C1C/C=C1/C(=O)OCC1OC(C)=O | crystal violet | 6.4 µM |
| COc1ccc2nc(Cl)c(/C=C/C(=O)c3ccc4c(c3)OCCO4)cc2c1 | MTS | 12.1 µM |
| Cc1cn2c(C(=O)NCc3ccc(N4CCC(Oc5cccc(C(F)(F)F)c5)CC4)c(F)c3)c(C)nc2s1 | fluorescence | >100 µM |
| Cc1c(C(=O)NCc2ccc(C(F)(F)F)cc2)[n+](=O)c2cc(Cl)ccc2n1[O-] | ATP / luminescence | >40 µg/mL |
| Cc1ccc2nc(Cl)c(/C=C/C(=O)c3ccc(I)s3)cc2c1 | MTS | 9.8 µM |
| Cc1cn2c(C(=O)NCc3ccccc3C(F)(F)F)c(C)nc2s1 | fluorescence | 73 µM |
| N#Cc1ccc(Sc2cc3ccccc3[n+](CCCCCC3CCCCC3)c2)cc1 | neutral red | >10 µg/mL |
| CC1CN(c2cc3c(=O)c(C(=O)O)c4n(c3cc2F)CS4)CC(C)O1 | MTT | >172 µM |
| CCCCS(=O)(=O)Nc1ccc2[nH]c(C(=O)NCC)c(C)c2c1 | resazurin | >150 µM |
| CC(C)(C)NC(=O)C1c2ccccc2CCN1c1cc2c(=O)c(C(=O)O)c3n(c2cc1F)CS3 | MTT | 130 µM |
| O=C(NCc1ccccc1)c1c(-c2ccccc2)[n+](=O)c2ccc(Cl)cc2n1[O-] | ATP / luminescence | >40 µg/mL |
| CCCCS(=O)(=O)Nc1ccc2[nH]c(C(N)=O)c(C)c2c1 | resazurin | >160 µM |
| Brc1ccc(OCc2nn3c(-c4ccc(Br)cc4)nnc3s2)cc1 | resazurin | 124 µM |
| CCN(CC)Cc1cc(N(c2cc(C)nc3cc(Cl)ccc23)S(=O)(=O)c2cc(C)cc(C)c2)ccc1O | resazurin | 114 µg/mL |
| CC(C)(C)OC(=O)NC1C2CN(c3cc4c(=O)c(C(=O)O)c5n(c4cc3F)CS5)CC21 | MTT | 140 µM |
| Cc1ccccc1Sc1cc2ccccc2[n+](CCCCCc2ccccc2)c1 | neutral red | >10 µg/mL |
| Cc1c(C(=O)NCc2ccc(C(F)(F)F)cc2)[n+](=O)c2cc(F)ccc2n1[O-] | ATP / luminescence | >40 µg/mL |
| CCCCS(=O)(=O)Nc1ccc2[nH]c(C(=O)Nc3cccc4ccccc34)c(C)c2c1 | resazurin | 110 µM |
| C=C1CCC2C(C)(CO)C(O)CCC2(C)C1CCC1=CCOC1=O | crystal violet | 80.3 µM |
| O=C(Nc1ccccc1)c1c(-c2ccccc2)[n+](=O)c2ccc(Cl)cc2n1[O-] | ATP / luminescence | 8.97 µg/mL |
| Cc1ccc2nc(Cl)c(/C=C/C(=O)c3ccc4c(c3)OCCO4)cc2c1 | MTS | 15.5 µM |
| Fc1ccc(-c2nnc3sc(COc4ccccc4)nn23)cc1 | resazurin | 23.17 µM |
| C=C1CCC2C3(C)COC(C)(C)OC3CCC2(C)C1C/C=C1\C(=O)OCC1O | crystal violet | 40.2 µM |
| O=C(NCc1ccccc1)c1c(-c2ccccc2)[n+](=O)c2ccccc2n1[O-] | ATP / luminescence | >40 µg/mL |
| CCCCS(=O)(=O)Nc1ccc2[nH]c(C(=O)NC3CCCCC3)c(C)c2c1 | resazurin | >130 µM |
| Cc1cn2c(C(=O)NCc3cccc(F)c3)c(C)nc2s1 | fluorescence | >100 µM |
| C=C1CC[C@@H]2[C@](C)(CO)[C@H](O)CC[C@@]2(C)[C@@H]1C/C=C1/C(=O)OC[C@H]1O | crystal violet | 76.3 µM |
| CN1CCN(c2cc3c(=O)c(C(=O)O)c4n(c3cc2[N+](=O)[O-])CS4)CC1c1ccccc1 | MTT | 69.06 µM |
| COc1cc2c3c(cc(O)c2cc1C)C(C)(C)C(=O)OC3=O | absorbance | >10 µM |
| Clc1ccc(-c2nnc3sc(COc4ccc(Br)cc4)nn23)cc1 | resazurin | 92.31 µM |
| FC(F)(F)c1cccc(Sc2cc3ccccc3[n+](CCCCCC3CCCCC3)c2)c1 | neutral red | >10 µg/mL |
| Cc1cn2c(C(=O)NCc3ccc(N4CCC5(CC4)OCC(C)CO5)cc3)c(C)nc2s1 | fluorescence | 47 µM |
| Brc1ccc(Sc2cc3ccccc3[n+](CCCCCc3ccccc3)c2)cc1 | neutral red | >10 µg/mL |
| O=C(O)c1c2n(c3cc(F)c(N4CCN(Cc5ccc6c(c5)OCO6)CC4)cc3c1=O)CS2 | MTT | >133 µM |
| CCCCS(=O)(=O)Nc1ccc2[nH]c(C(=O)N3CCOCC3)c(C)c2c1 | resazurin | >130 µM |
| Cc1cn2c(C(=O)NCc3ccc(N(C)C)cc3)c(C)nc2s1 | fluorescence | >100 µM |
| O=[N+]([O-])c1ccc(OCc2nn3c(-c4ccc(Cl)cc4)nnc3s2)cc1 | resazurin | 27.27 µM |

The last 5 rows once more:

SMILES	read by	result
Brc1ccc(Sc2cc3ccccc3[n+](CCCCCc3ccccc3)c2)cc1	neutral red	>10 µg/mL
O=C(O)c1c2n(c3cc(F)c(N4CCN(Cc5ccc6c(c5)OCO6)CC4)cc3c1=O)CS2	MTT	>133 µM
CCCCS(=O)(=O)Nc1ccc2[nH]c(C(=O)N3CCOCC3)c(C)c2c1	resazurin	>130 µM
Cc1cn2c(C(=O)NCc3ccc(N(C)C)cc3)c(C)nc2s1	fluorescence	>100 µM
O=[N+]([O-])c1ccc(OCc2nn3c(-c4ccc(Cl)cc4)nnc3s2)cc1	resazurin	27.27 µM

CCn: concentration that lowers growth or viability of the cells by n%.